Experimental data published in paper PMC12624782 (The Journal of Biological Chemistry, 2025).

Protein sequences, listed by entry. Tags and fused reporters are not part of them. Residues count along the entry.
UniProt A0A3B5XZG4, 1-234: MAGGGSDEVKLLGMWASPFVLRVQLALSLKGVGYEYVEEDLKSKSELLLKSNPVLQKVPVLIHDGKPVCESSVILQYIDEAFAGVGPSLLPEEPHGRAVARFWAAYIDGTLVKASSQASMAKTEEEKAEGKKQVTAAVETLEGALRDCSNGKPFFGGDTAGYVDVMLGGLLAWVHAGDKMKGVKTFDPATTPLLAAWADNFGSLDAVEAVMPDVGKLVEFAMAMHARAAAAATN

Target: TaGST-10 (Triticum aestivum, UniProt A0A3B5XZG4)
Experiment: crystal structure, […] Å (ligand modeled from electron density)

`CC1=C[C@H]2O[C@@H]3[C@H](O)C[C@](C)([C@]24CO[C@@]1(O)[C@H]4O)[C@]3(O)CSC[C@H](N)C(=O)O` was tested, and the “crystal structure, 2.3 Å (ligand modeled from electron density)” value was “Chain A of TaGST-10 contained an additional ligand that was modeled as DON-13-cysteine based on the electron density”.
